The text below walks through data of paper PMC5501646.

Protein sequences, listed by entry. Tags and fused reporters are not part of them. Lines headed by an entry give the natural chain unless they say otherwise; changes in a name come on top.
UniProt Q9HUM0: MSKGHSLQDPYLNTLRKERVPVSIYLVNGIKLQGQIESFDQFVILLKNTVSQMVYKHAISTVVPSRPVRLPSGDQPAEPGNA

Series [1] concerns the target HfqPae (wild type) (Pseudomonas aeruginosa PAO1) (UniProt Q9HUM0). Nature of the series: EMSA. To be noted: 10 nM RNA, 1-8-fold Hfq, tRNA competitor; EMSA: 10 mM Tris-HCl pH 8.0, 10 mM MgCl2, 60 mM NaCl, 10 mM NaH2PO4, 10 mM DTT, 25 ng tRNA in 10 ul, 37 C 30 min; recombinant protein; residues 1-82; label: 5'-32P (EMSA), none (MST); probe letters rebuilt from the primers and the genome.

Series [2] shares this target. Nature of the series: MST. To be noted: 30 nM labelled Hfq, 1 mM Mg2+, 25 C, MST: 10 mM Tris pH 8.0, 40 mM NaCl, 10 mM KCl, 1 mM MgCl2, 0.05% Tween, recombinant protein, residues 1-82, probe letters rebuilt from the primers and the genome.

For some assays here: For at least one entry, the source does not settle the construct or the ends of the probe. For some assays here: At least one verdict was read from the data and is not stated in words by the source.

Consider “GGGAGCCGGCCUUGCGCCGGCAUAUGCCUUGCAUUUUGCUGAAAACAGAGCGCCAGCAGAGCGCACCCCCAGCCUUGCCGUGUCGAGUGCCGAACCAUGAUGAGGACCCAUCCCGUCGCCGAUCGUGGCGAUCUCCAUGCCGACCACCUGGACCUGGCCGCCG [antR(-95-+67) mRNA fragment]”, for which, in series [1], the binding result is listed as “binds”.

“GGCACAACAACAAUAACAAGCAACGACGAAGACAAUAAAAACAACACGUAACGACUCCAGCACAACAAAAACAAAAUCGCGGAGGCGCAGCUAACUGAUUCUUUUGGAGAGGAGUUGCUGUCGGGACCCGUCCCGCAGCCAGUCGGAAGAAGAAUAAAACUGCCUUGAGGCAGCGCACAGACUGGUUGGAUCGCUCGACGAUCAUGGCAGCAUCAGCGACCAAAGCAAUCCGUUUGCUAUUGAACUCCCAGCCUGGGAGAUAUCCCUGAAGCGACUGGCUCAAGGGACGGGUCGACAAACAAAAACAACAAGCCCGAAAUCAUAAUAAAAACAAAGCACGCACCUACUUGGGGGGGAGCUUCGGCUCCCCCAGUAGCUUCACCCCCUCCCUCCGUUUUCCCCGUUUUUCCUUCGCCUUACACCAUUUCGGAUCCGCAU [CrcZ RNA]”: the Kd in series [2] was determined as 7.4 nM.
